According to US20260183277A1, “ANTIVIRAL PHARMACEUTICAL COMPOSITION COMPRISING ERRy INHIBITOR AS ACTIVE INGREDIENT” (priority 2024, published 2026):

Tests used:
[1] = test system: SARS-CoV-2 KCDC03; experiment: In vitro antiviral activity against SARS-CoV-2 (viral yield by cell culture immunofluorescence assay, cytotoxicity by MTT); assay type: cell-based; settings: from CC50 and IC50
[2] = test system: influenza A virus (IAV) PR8 strain; experiment: In vitro antiviral activity against IAV; assay type: cell-based; settings: from CC50 and IC50

## CC(C)N1CCN(c2ccc(/C(=C(/CCCO)c3ccccc3)c3ccc(O)cc3)cc2)CC1 [DN200434]
[1]
  selectivity index (SI): 50
[2]
  selectivity index (SI): 34
